Patent US8895752B2, “Alkylsulfonyl-substituted thiazolide compounds” (priority 2007, dated 2014)

Columns and labels:
HBV = HBV antiviral assay in confluent 2.2.15 cell cultures (HBV DNA, quantitative blot hybridization); assay type: cell-based, Hepatitis B Virus; conditions: for Selectivity Index Virion: CC50/EC90, extracellular virion DNA; for Selectivity Index RI: CC50/EC90, intracellular HBV RI
HCV replicon = assay: Primary HCV replicon cell assay; assay type: cell-based, Hepatitis C Virus
Protocol: (§1) Antiviral activity of test compounds was assessed in a 3-day assay using the stably-expressing HCV replicon cell line, AVA5 (sub-genomic CON1, genotype 1b) (Blight et al., 2000) maintained as sub-confluent cultures on 96-well plates as previously described (Okuse et al., 2005). Antiviral activity was determined by blot hybridization analysis of intracellular HCV RNA (normalized to the level of cellular B-actin RNA in each culture sample) and cytotoxicity was assessed by neutral red dye uptake after 3 days of treatment. Additional studies were performed using Huh7 cells containing another HCV replicon, H/FL-Neo, a genotype 1a full length construct (Blight et al., 2003). For studies involving human serum, standard culture medium (which contains 10% fetal bovine serum) and assay conditions were maintained.
(§2) EC50, EC90 and CC50 values (±standard deviations [S.D.]) were calculated by linear regression analysis using data combined from all treated cultures (Korba and Gerin, 1992; Okuse et al., 2005). […] Selectivity index (S.I.) was calculated as CC50/EC90 for HBV assays and CC50/EC50 for HCV assays. EC90 values were used for calculation of the S.I. in HBV assays since at least a […] depression of HBV DNA levels is typically required to achieve statistical significance in this assay system (Korba and Gerin, 1992). […]

[1] = tested on: HCV replicon H/FL-Neo, genotype 1a full length; assay: HCV replicon assay in Huh7 cells containing H/FL-Neo; assay type: cell-based, Hepatitis C Virus; conditions: Genotype 1a replicon, CC50/EC50
Protocol: as §1, §2

[2] = tested on: HCV replicon, sub-genomic CON1, genotype 1b; assay: 3-day HCV replicon assay in AVA5 cells (intracellular HCV RNA, blot hybridization); assay type: cell-based, Hepatitis C Virus; conditions: Genotype 1b replicon, CC50/EC50
Protocol: as §1, §2

SMILES	Selectivity Index Virion (HBV)	Selectivity Index RI (HBV)	other results
CC(C)(C)C(=O)OCOP(=O)(COCCn1cnc2c(N)ncnc21)OCOC(=O)C(C)(C)C [ADV, adefovir dipovoxil]	>100	–	–
CS(=O)(=O)c1cnc(NC(=O)c2ccccc2O)s1 [Compound 6, 2-hydroxy-N-(5-(methylsulfonyl)thiazol-2-yl)benzamide]	–	–	SI (HCV replicon): 29.0
CS(=O)(=O)c1cnc(NC(=O)c2ccccc2[O-])s1.[Na+] [Compound 75]	–	–	SI (HCV replicon): 25.0
O=C(Nc1ncc(Br)s1)c1ccccc1O [RM4832]	>25	>12	Selectivity Index [1]: 31; Selectivity Index [2]: 20
O=C(Nc1ncc(Cl)s1)c1ccccc1O [RM4848]	>58	–	–
Cc1ccc(O)c(C(=O)Nc2ncc(Cl)s2)c1 [RM4850]	>120	>51	–
Cc1ccc(C(=O)Nc2ncc(Cl)s2)c(O)c1 [RM4852]	>30	>16	–
